Compound potency records, mixed from different reports. Data source: NIAID ChemDB in PubChem.

Shared fields: whole-cell or culture tests; organism: HIV-2; cell line: CEM; read-out: EC50

Rows are shuffled and stem from different studies. ECn: concentration that inhibits the pathogen or its effect by n%. Blank or dashed fields: not listed here.

compound | strain | read by | value
O=S(=O)(Cc1ccccc1I)c1cccc[n+]1[O-] | ROD | syncytia | 8 µg/mL
CCS[C@]12CS(=O)(=O)O[C@@]13[C@@H](CN2)O[C@@H](n1cc(C)c(=O)[nH]c1=O)[C@@H]3O[Si](C)(C)C(C)(C)C | ROD |  | >50 µM
Cc1ccc(C)c(C(C)S(=O)(=O)c2c(C)ccc[n+]2[O-])c1 | ROD | syncytia | >20 µg/mL
Cc1cn([C@@H]2O[C@@H]3CN[C@@]4(OCCOc5ccccc5)CS(=O)(=O)O[C@@]34[C@H]2O[Si](C)(C)C(C)(C)C)c(=O)[nH]c1=O | ROD |  | >5 µM
O=C(c1ccccc1)c1ccc2c(c1)sc(=O)n2Cc1ccccc1 | ROD | syncytia | >8 µg/mL
O=[N+]([O-])c1ccc[n+]([O-])c1SCc1ccccc1 | ROD | syncytia | ≥20 µg/mL
Cn1c(=O)sc2cc(C(=O)c3ccccc3)ccc21 | ROD | syncytia | 3.5 µg/mL
Cc1ccc(C)c(CSc2c(Cl)ccc[n+]2[O-])c1 | EHO | syncytia | ≥20 µg/mL
CCCCCCCC(Sc1cccc[n+]1[O-])c1cc(C)c(C)c(C)c1 | ROD | syncytia | >20 µg/mL
O=c1[nH]c2ccc(Cc3ccc(F)cc3)cc2o1 | ROD | syncytia | >8 µg/mL
Cc1ccc(C)c(CS(=O)(=O)c2ncccc2O)c1 | ROD | syncytia | 100 µg/mL
Nc1ccc(C(=O)c2ccc3[nH]c(=O)oc3c2)cc1 | ROD | syncytia | >40 µg/mL
COc1cccnc1SCc1ccccc1 | ROD | syncytia | >20 µg/mL
CCO[C@]12CS(=O)(=O)O[C@@]13[C@@H](CN2)O[C@@H](n1ccc(=O)[nH]c1=O)[C@@H]3O[Si](C)(C)C(C)(C)C | ROD |  | >50 µM
Cc1ccc(C)c(CS(=O)(=O)c2ccccn2)c1 | ROD | syncytia | ≥20 µg/mL
Cc1cn([C@@H]2O[C@@H]3CN[C@H]4CS(=O)(=O)O[C@]43[C@H]2O[Si](C)(C)C(C)(C)C)c(=O)[nH]c1=O | ROD |  | >125 µM
Cc1ccc(C)c(CS(=O)c2cccc[n+]2[O-])c1 | ROD | syncytia | ≥20 µg/mL
Cc1cc(C)c(CS(=O)c2cccc[n+]2[O-])c(C)c1 | EHO | syncytia | 2.1 µg/mL
O=C(c1ccccc1)c1ccc2c(c1)oc(=O)n2Cc1ccccc1 | ROD | syncytia | >40 µg/mL
Cc1ccc(C)c(CS(=O)c2ccc(Cl)c[n+]2[O-])c1 | EHO | syncytia | 2.4 µg/mL
Cc1ccc(C)c(C(CC(=O)O)S(=O)(=O)c2cccc[n+]2[O-])c1 | ROD | syncytia | >20 µg/mL
CCCCC(=O)c1ccc2c(c1)sc(=O)n2Cc1ccccc1 | ROD | syncytia | >40 µg/mL
Cc1ccc(CS(=O)(=O)c2c(C)ccc[n+]2[O-])c(C)c1 | ROD | syncytia | ≥20 µg/mL
CCO[C@]12CS(=O)(=O)O[C@@]13[C@@H](CN2)O[C@@H](n1cc(C)c(=O)[nH]c1=O)[C@@H]3O[Si](C)(C)CCC(C)(C)C | ROD |  | >10 µM
Cc1cccc(CS(=O)c2cccc[n+]2[O-])c1 | ROD | syncytia | >20 µg/mL
Cc1ccc(C)c(C(Cl)S(=O)(=O)c2cc(C)cc[n+]2[O-])c1 | EHO | syncytia | >4 µg/mL
O=S(=O)(Cc1c(Cl)ccc(Cl)c1Cl)c1cccc[n+]1[O-] | ROD | syncytia | ≥4 µg/mL
O=C(c1cccc(Cl)c1)c1ccc2c(c1)sc(=O)n2Cc1ccccc1 | ROD | syncytia | >1.6 µg/mL

A second listing of 3 rows from above:

compound	strain	read by	value
COc1cccnc1SCc1ccccc1	ROD	syncytia	>20 µg/mL
Cc1ccc(C)c(CS(=O)c2cccc[n+]2[O-])c1	ROD	syncytia	≥20 µg/mL
O=C(c1ccccc1)c1ccc2c(c1)sc(=O)n2Cc1ccccc1	ROD	syncytia	>8 µg/mL